This passage reports stoichiometry N results from paper PMC4895005, “Auto-Assembling Detoxified Staphylococcus aureus Alpha-Hemolysin Mimicking the Wild-Type Cytolytic Toxin” (2016).

The target of this data set is HlaPSGS (alpha-hemolysin with the stem domain replaced by the linker PSGS), Staphylococcus aureus NCTC8325 (UniProt Q2G1X0). Kind of data set: SEC.

With “HlaPSGS (alpha-hemolysin with the stem domain replaced by the linker PSGS)”, the stoichiometry N stood at 7.
